Results of unrelated studies side by side (data: NIAID ChemDB).

Common to all: tests in culture; organism: HIV-1

Lines come from different laboratories, so protocols vary.

smiles | cell line | mutations | method | strain | setting | read-out | result
Cc1cn([C@H]2C[C@H](N=[N+]=[N-])[C@@H](CO)O2)c(=O)[nH]c1=O | MT-4 |  | p24 | NL-XM WT |  | EC90 | 0.02 µM
CC(=O)N1CCC(C(=O)N(CCCN2CCC(Cc3ccc(C(N)=O)cc3)CC2)c2ccc(C)c(Cl)c2)CC1 | U87 (CD4+ CXCR4+) + U87 |  | luciferase | R5X4 subtype B_2 recombinant |  | EC50 | >19 µM
CC[C@@H](C)[C@H](C(=O)O)N1C[C@H](CN2CCC(c3cc(Cc4ccc(Oc5ccccc5)cc4)nn3CC)CC2)[C@@H](c2cccc(F)c2)C1 | HeLa |  | β-galactosidase | BaL | 50% human serum | EC50 | <0.3 µM
C#C[C@]1(CO)O[C@@H](n2cnc3c(N)nc(F)nc32)C[C@@H]1O | MT4-GFP | M41L/A114S/M184V | fluorescence | Clinical isolate |  | EC50 | 0.06868 µM
Cc1cccc(C)c1OCC(=O)N[C@@H](Cc1ccccc1)[C@@H](O)C[C@H](Cc1ccccc1)NC(=O)[C@H](C(C)C)N1CCCNC1=O | PBMC |  | p24 / luminescence | 92UG029 |  | EC50 | 0.027 µM
O=S(=O)(c1ccccc1)c1ccccc1 | CEM + CEM-SS | RT-Y181C | cytopathic effect / XTT | IIIB |  | EC50 | 114.1 µM
CN1N=C(N)c2cn([C@@H]3O[C@H](COP(=O)(O)O)[C@@H](O)[C@H]3O)c3ncnc1c23 | H9 |  | RT activity |  |  | EC50 | 0.05 µM
C[C@@H](Cn1cnc2c(N)nc(N)nc21)OCP(=O)(O)O | Macrophage + Monocytes/macrophages |  | p24 / syncytia | BaL |  | EC50 | 1.3 µM
Cc1occc1C(=S)Nc1ccc(Cl)c(/C=N/OC(C)(C)C)c1 | CEM + CEM-SS | RT-M184V | cytopathic effect / XTT | NL4-3 (RT M184V) |  | EC50 | 0.1 µM
CCn1nc(Cc2ccc(OC(C)(C)C)cc2)cc1C1CCN(C[C@H]2CN([C@@H](C(=O)O)C(C)(C)C)C[C@@H]2c2cccc(F)c2)CC1 | HeLa |  | β-galactosidase | BaL | 50% human serum | EC50 | <0.3 µM
CC(C)(C)NC(=O)[C@@H]1C[C@@H]2CCCC[C@@H]2CN1C[C@@H](O)[C@H](Cc1ccccc1)NC(=O)[C@H](CC(N)=O)NC(=O)c1ccc2ccccc2n1 | MT-4 | PR-L63P V82T | p24 | NL4-3 |  | EC95 | 0.025 µM
CCc1c(C(=O)c2cc(C)cc(C)c2)n(CC2CC=CC2)c(=O)[nH]c1=O | U-937 |  | cytopathic effect / XTT | IIIB |  | EC50 | 0.01 µM
CC(C)CN(C[C@@H](O)[C@H](Cc1cc(F)cc(F)c1)NC(=O)O[C@H]1CCO[C@H]2OCC[C@H]21)S(=O)(=O)c1ccc2nc(NC(C)C)sc2c1 | PBMC |  | p24 / luminescence | 92UG029 |  | EC50 | 0.0022 µM
CCc1c(Sc2ccccn2)n(COCc2ccccc2)c(=O)[nH]c1=O | CEM + CEM-SS | RT-Y188C | cytopathic effect / XTT | NL4-3 |  | EC50 | 2.4 µM
Cc1cn([C@H]2C[C@H](N=[N+]=[N-])[C@@H](CO)O2)c(=O)[nH]c1=O | PBMC |  | p24 | 7898 CLADE B CLADE B |  | EC50 | 0.007 µM
CCn1nc(Cc2ccc(OC(F)(F)F)cc2)cc1C1CCN(C[C@H]2CN([C@@H](C(=O)O)C(C)(C)C)C[C@@H]2c2cccc(F)c2)CC1 | HeLa |  | β-galactosidase | BaL |  | EC50 | <0.0012 µM
Nc1ccn([C@H]2CC[C@@H](CO)O2)c(=O)n1 | PBMC | RT-A98G K103R |  | BCF06 |  | EC50 | 0.16 µM
CCN(c1nc(F)ccc1NC(C)(C)C)C1CCN(C(=O)c2cc3cc(NC(=O)N4CCN(C)CC4)ccc3[nH]2)CC1 | MT-2 |  | p24 / ELISA | IIIB |  | EC50 | 0.0261 µM
Cc1cn([C@H]2C[C@H](N=[N+]=[N-])[C@@H](CO)O2)c(=O)[nH]c1=O | PBMC |  | cytopathic effect / XTT | WEJO |  | EC50 | 0.02 µM
CO[P@](=O)(c1cc(C)cc(/C=C/C#N)c1)c1c(C(N)=O)[nH]c2ccc(Cl)cc12 | MT-4 | WT | ELISA | NL4-3 |  | EC50 | 0.0017 µM
CCn1nc(Cc2ccc(O)cc2)cc1C1CCN(C[C@H]2CN([C@@H](C(=O)O)C(C)(C)C)C[C@@H]2c2cccc(F)c2)CC1 | HeLa |  | β-galactosidase | BaL |  | EC90 | 0.0004 µM
O=C1Nc2ccc(Cl)cc2[C@@](C#CC2CC2)(C(F)(F)F)O1 | Primary T lymphocytes | A62V V75I F77L F116Y Q151M | p24 / ELISA |  |  | EC90 | 0.44 µM
Cc1cn([C@H]2C[C@H](N=[N+]=[N-])[C@@H](CO)O2)c(=O)[nH]c1=O | PBMC | RT-M41L T215Y | p24 | P798-1 Clinical isolate ZDV-resistant |  | EC50 | 1.8 µM
CC(C)Nc1cccnc1N1CCN(C(=O)c2cc3cc(NS(C)(=O)=O)ccc3[nH]2)CC1 | PBMC |  | p24 | 410 clinical isolates AZT-resistant |  | EC90 | >10 µM
O=c1[nH]cnc2c1ncn2C1CC[C@@H](CO)O1 | Primary T lymphocytes | K65R | p24 / ELISA |  |  | EC90 | 86.7 µM
COC(=O)[C@H](C)NP(=O)(OC[C@@H]1C=C[C@H](n2cc(C)c(=O)[nH]c2=O)O1)Oc1ccc(Br)cc1 | PBMC | RT-M41L E44D D67N T69D L210W T215Y | p24 | T156-3 Clinical isolate ZDV-resistant |  | EC50 | 0.0033 µM
Cc1ccnc2c1NC(=O)c1cccnc1N2C1CC1 | CEM + CEM-SS | RT-L74V | cytopathic effect / XTT | NL4-3 (RT L74V) |  | EC50 | 0.02 µM
S=C(NCCc1cccs1)Nc1ccc(Br)cn1 | PBMC |  | p24 | IIIB |  | EC50 | 0.014 µM
Nc1ccn([C@@H]2CS[C@H](CO)O2)c(=O)n1 | PBMC | RT-D67N T69N K70R M184V T215F K219Q | p24 | 7295-1 NRTI resistant recombinant |  | EC50 | >10 µM
Cc1cc(C#Cc2cccc(N)c2)cc(C)c1Oc1ccnc(NC2CCN(Cc3ccc(S(N)(=O)=O)cc3)CC2)n1 | MT-4 | RES056 | MTT | IIIB |  | EC50 | >0.732 µM
CC[C@H](C)[C@H](C(=O)O)N1C[C@H](CN2CCC(c3cc(Cc4ccc(C(F)(F)F)cc4)nn3CC)CC2)[C@@H](c2cccc(F)c2)C1 | HeLa |  | β-galactosidase | BaL | 50% human serum | EC50 | <0.033 µM
CC(C)CN(C[C@@H](O)[C@H](Cc1ccccc1)NC(=O)[C@H](CC(N)=O)NC(=O)c1ccc2ccccc2n1)C(=O)NC(C)(C)C | MT-4 | PR-M46I V82T I84V | p24 | NL4-3 |  | EC50 | <0.8 µM
Cc1cc(S(N)(=O)=O)ccc1NC(=O)COc1ccc(Cl)cc1C(=O)c1cc(Cl)cc(C#N)c1 | MAGI | RT-M184V | β-galactosidase | 3TC-resistant (RT M184V) M184V |  | EC50 | 0.0007 µM
CCCc1cc(=O)oc2c3c(c4c(c12)OC(C)(C)C=C4)O[C@@H](C)[C@H](C)[C@@H]3O | CEM + CEM-SS | RT-V179D | XTT | NL4-3 |  | EC50 | 0.1 µM
CC(C)CN(C[C@@H](O)[C@H](Cc1ccccc1)NC(=O)O[C@H]1CCOC1)S(=O)(=O)c1ccc(N)cc1 | MT-2 | M200I | p24 / ELISA | IIIB |  | EC50 | 0.0473 µM
COC(=O)[C@H](C)NP(=O)(OC[C@@H]1C=C[C@H](n2cc(C)c(=O)[nH]c2=O)O1)Oc1ccc(Br)cc1 | PBMC | RT-M41L F116S T215Y | p24 | X267-5 NRTI resistant |  | EC50 | 0.03 µM
Cc1cc(C#Cc2ccc(C(=O)O)cc2)cc(C)c1Oc1ccnc(Nc2ccc(C#N)cc2)n1 | MT-4 | Y188L | MTT | IIIB |  | EC50 | 0.523 µM
CC(C)=CCN1Cc2cc(Cl)cc3[nH]c(=S)n(c23)C[C@@H]1C | MT-4 | RT-K70R K103N |  |  |  | EC95 | >3 µM
CC(C)Nc1cccnc1N1CCN(C(=O)c2cc3cc(NS(C)(=O)=O)ccc3[nH]2)CC1 | MT-4 | RT-P236L | antigen | HXBE30(RT-P236L) |  | EC50 | ~0.1 µM
Cc1ccnc2c1NC(=O)c1cccnc1N2C1CC1 | HT4 + HT4 LacZ-1 | RT-Y181C | plaque count | HXB2 |  | EC50 | 12.6 µM
C/C=C/CSc1cc(NC(=S)c2ccsc2C)ccc1Cl | CEM + CEM-SS | RT-T139I | cytopathic effect / XTT | Calanolide A-resistant (RT T139I) |  | EC50 | 0.4 µM
N#Cc1cc2[nH]c3ccccc3c2n(-c2ccc([N+](=O)[O-])cc2)c1=O | HeLa | RT-K103N Y181C | luciferase | NNRTI-resistant |  | EC50 | 0.34 µM
CCc1c(CC2CCCCC2)nc(SCC(=O)c2ccccc2)[nH]c1=O | C8166 | V106A | p24 / ELISA | NL4-3 |  | EC50 | 0.734 µM
CCn1nc(Cc2ccc(OC)cc2)cc1C1CCN(C[C@H]2CN([C@@H](C(=O)O)C(C)(C)C)C[C@@H]2c2cccc(F)c2)CC1 | HeLa |  | β-galactosidase | BaL | 50% human serum | EC90 | 0.033 µM
Cc1ccnc2c1NC(=O)c1cccnc1N2C1CC1 | PBMC |  | RT activity | CLADE F |  | EC50 | 0.2 µM
Cc1cn([C@H]2C[C@H](N=[N+]=[N-])[C@@H](CO)O2)c(=O)[nH]c1=O | MT-2 |  |  | RF |  | EC50 | 0.005–0.15 µg/mL
CC[C@@H](C)[C@H](C(=O)O)N1C[C@H](CN2CCC(c3cc(Cc4ccc5ccccc5c4)nn3CC)CC2)[C@@H](c2cccc(F)c2)C1 | HeLa |  | β-galactosidase | BaL |  | EC90 | <0.00014 µM
Nc1ccn([C@H]2CC[C@@H](CO)O2)c(=O)n1 | H9 |  | syncytia | IIIB |  | EC50 | 0.013 µM
Cc1ccnc2c1NC(=O)c1cccnc1N2C1CC1 | CEM + CEM-SS | RT-L74V | cytopathic effect / XTT | NL4-3 |  | EC50 | 0.02 µM
Cc1cn([C@H]2C=C[C@@H](CO)O2)c(=O)[nH]c1=O | Primary T lymphocytes | 4xAZT | p24 / ELISA |  |  | EC90 | 53.2 µM
Cc1cc(C#Cc2cccc(N)c2)cc(C)c1Oc1ccnc(NC2CCN(Cc3ccc(C(N)=O)cc3)CC2)n1 | MT-4 | K103N | MTT | IIIB |  | EC50 | 0.026 µM
Cc1ccc(S(=O)(=O)N(CC(C)C)C[C@@H](O)[C@H](Cc2ccccc2)NC(=O)O[C@H]2CO[C@H]3OCC[C@H]32)cc1 | MT-2 | L441P | p24 / ELISA | IIIB |  | EC50 | 0.008 µM
Cc1cn([C@H]2C[C@H](N=[N+]=[N-])[C@@H](CO)O2)c(=O)[nH]c1=O | CEM + CEM-SS | RT-L100I T139I | XTT | Costatolide-resistant (RT L100I T139I) |  | EC50 | 0.06 µM
CC(C)c1nc(CN(C)C(=O)N[C@H](C(=O)N[C@@H](Cc2ccccc2)C[C@H](O)[C@H](Cc2ccccc2)NC(=O)OCc2cncs2)C(C)C)cs1 | MT-4 | PR-D30N M46I A71V | p24 | NL4-3 |  | EC90 | 0.04 µM
O=c1[nH]cnc2c1ncn2[C@H]1CC[C@@H](CO)O1 | HeLa | RT-M184V | luciferase | Recombinant |  | EC50 | 6.33 µM
Cc1cn([C@H]2C[C@H](N=[N+]=[N-])[C@@H](CO)O2)c(=O)[nH]c1=O | PBMC | RT-T69K K70G V75I F77L F116Y Q151M M184V | p24 | 56252-1 NRTI resistant recombinant |  | EC50 | >1 µM
O=C1CN=C(c2ccc[nH]2)c2cc(Cl)ccc2N1 | MT-4 |  | antigen | IIIB/LAI |  | EC50 | >9 µM
CC(C)Nc1cccnc1N1CCN(C(=O)c2cc3cc(NS(C)(=O)=O)ccc3[nH]2)CC1 | MT-4 |  | MTT | IIIB |  | EC50 | 0.023 µM
CC(C)=CCN1Cc2cc(Cl)cc3[nH]c(=S)n(c23)C[C@@H]1C | PBMC |  |  | LAI |  | EC50 | 0.02 µM
Nc1ncnc2c1ncn2CCOCP(=O)(O)O | MT-4 |  | cytopathic effect / trypan blue | IIIB |  | EC50 | 7 µM
CCCc1cc(=O)oc2c3c(c4c(c12)OC(C)(C)C=C4)O[C@H](C)[C@@H](C)[C@@H]3O | CEM + CEM-SS | RT-Y181C | XTT | E BPTU-resistant (RT Y181C) |  | EC50 | 0.1 µM
Cc1cn([C@H]2C[C@H](N=[N+]=[N-])[C@@H](CO)O2)c(=O)[nH]c1=O | PBMC |  | p24 | 472 clinical isolates AZT-resistant |  | EC50 | <1.4 µM
Cn1c2ccccc2c2c1cc(C#N)c(=O)n2-c1ccc([N+](=O)[O-])cc1 | HeLa | RT-Y188L | luciferase | NNRTI-resistant |  | EC50 | 0.0069 µM
O=c1[nH]cnc2c1ncn2[C@H]1CC[C@@H](CO)O1 | MT-4 | RT-M41L D67N K70R T215Y K219Q | p24 | XM-AZT-resistant |  | EC50 | <11 µM
CCn1nc(Cc2cccc(F)c2)cc1C1CCN(C[C@H]2CN([C@@H](C(=O)O)C3CCCCC3)C[C@@H]2c2cccc(F)c2)CC1 | HeLa |  | β-galactosidase | BaL | 50% human serum | EC90 | 0.033 µM
O=C1N(Cc2ccc(CO)cc2)[C@H](Cc2ccccc2)[C@H](O)[C@@H](O)[C@@H](Cc2ccccc2)N1Cc1ccc(CO)cc1 | PBMC |  | p24 | Clinical isolate V |  | EC50 | 0.07 µM
CCn1nc(Cc2ccc3ccccc3c2)cc1C1CCN(C[C@H]2CN([C@@H](C(=O)O)C(C)(C)C)C[C@@H]2c2cccc(F)c2)CC1 | HeLa |  | β-galactosidase | BaL | 50% human serum | EC90 | 0.1 µM
Cc1ccnc2c1NC(=O)c1cccnc1N2C1CC1 | PBMC | RT-A98G V106I Y181C |  | BCF07 |  | EC50 | 17 µM
O=S(=O)(c1ccccc1)c1ccccc1 | CEM + CEM-SS |  | cytopathic effect / XTT | IIIB |  | EC50 | 7 µM
CC(C)OC(=O)OCOP(=O)(CO[C@H](C)Cn1cnc2c(N)ncnc21)OCOC(=O)OC(C)C | MT-2 | RT-Y181C | p24 | N119 (NNRTI-resistant RT Y181C) |  | EC50 | 0.001 µM

Blank or dashed fields: not listed here. ECn is the concentration giving n% inhibition of infection, replication or growth. a–b is a range or a potency band.